Literature values, collected in patent US5965088A, “Method for providing rapid disinfection of contact lenses” (priority 1997, dated 1999).

Conditions: cited from earlier work

[H]/N=C(\N/C(=N/[H])NCCCCCCNC(=N)NC(=N)Nc1ccc(Cl)cc1)Nc1ccc(Cl)cc1 [chlorhexidine]
binding to soft lens material vs benzalkonium chloride (clean lenses): seven times less | effect of proteinaceous oily tear-film deposits on amount absorbed vs clean lenses (lenses with deposits): double
